Measurements: article PMC2676509, “Intrinsic Thermal Sensing Controls Proteolysis of Yersinia Virulence Regulator RovA” (2009)

Biological target: RovA (Y. pseudotuberculosis)

RovA
stoichiometry N: 2
